Measured data: PubChem BioAssay AID624099 (ICCB-Longwood, 2012)
Here is a random part of about 21,000 reagents. 497 of them (2.4%) were called active. 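Higher z means weaker E2 silencing; only reporter increases were scored, and knock-downs that hurt cell survival may mask genuine repressor factors.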 A number with no mark means an inactive call. Reagents against one gene are numbered here. No sequences are given here.

- Aim: 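Human genes that papillomavirus E2 requires to repress the HPV18 LCR promoter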 (primary screen)
- System: human C33A cervical carcinoma cells (HPV-negative) stably expressing BPV1 E2 and an HPV18 LCR luciferase reporter
- Reagent: siRNA pool against human genes, 40 nM
- Timing: 72 h
- Read-out: 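HPV18 LCR reporter light per well, converted to plate-wise z-scores that exclude control wells, and averaged over triplicate plates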
- Reading the numbers: mean z-score and z-score: higher = stronger reporter signal, weaker E2 silencing
- Active means: 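Hit if mean z-score reaches 2 and two or more of three replicate z-scores also reach 2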

gene,reagent no.,mean z-score,"z-score, replicate A","z-score, replicate B","z-score, replicate C"
FTH1 (ferritin heavy chain 1),1,0.28,0.44,0.23,0.19
HS2ST1 (heparan sulfate 2-O-sulfotransferase 1),1,1.36,1.14,1.44,1.48
METTL15P1 (methyltransferase like 15 pseudogene 1),1,0.6,0.43,0.87,0.5
"TLE5 (TLE family member 5, transcriptional modulator)",1,-0.46,-0.65,-0.46,-0.26
LHFPL2 (LHFPL tetraspan subfamily member 2),1,0.08,0.12,0.05,0.08
LHFPL2 (LHFPL tetraspan subfamily member 2),2,2.77 (active),2.98,2.84,2.5
KDM1B (lysine demethylase 1B),1,-0.09,-0.56,0.27,0
"MALL (mal, T cell differentiation protein like)",1,-0.26,-0.03,-0.5,
TXNRD2 (thioredoxin reductase 2),1,0.41,0.47,0.2,0.57
ADISSP (adipose secreted signaling protein),1,1.67,1.48,1.91,1.61
FASTKD1 (FASTK mitochondrial RNA regulator 1),1,-0.09,-0.41,-0.13,0.27
MAML1 (mastermind like transcriptional coactivator 1),1,-0.59,-0.31,-0.73,-0.71
ZNF502 (zinc finger protein 502),1,0.72,0.78,0.55,0.84
NOS1 (nitric oxide synthase 1),1,-0.74,-0.37,-0.87,-0.97
CREBL2 (cAMP responsive element binding protein like 2),1,0.01,-0.02,-0.2,0.24
HBA2 (hemoglobin subunit alpha 2),1,-2.23,-2.51,-1.8,-2.37
BRF1 (BRF1 general transcription factor IIIB subunit),1,-0.43,-0.67,-0.12,-0.51
MPHOSPH9 (M-phase phosphoprotein 9),1,-0.67,-0.74,-0.54,-0.72
SPEG (striated muscle enriched protein kinase),1,0.19,0.12,0.38,0.07
SPATA31D4 (SPATA31 subfamily D member 4),1,-0.64,-1.14,-0.53,-0.25
DEFB1 (defensin beta 1),1,0.41,0.47,0.63,0.15
CIAO3 (cytosolic iron-sulfur assembly component 3),1,-0.7,-1.24,-0.71,-0.15
IFT81 (intraflagellar transport 81),1,-1.31,-1.29,-1.34,-1.29

In a second layout: 2 of the entries above
{"gene":"NOS1 (nitric oxide synthase 1)","reagent no.":1,"mean z-score":-0.74,"z-score, replicate A":-0.37,"z-score, replicate B":-0.87,"z-score, replicate C":-0.97}
{"gene":"CREBL2 (cAMP responsive element binding protein like 2)","reagent no.":1,"mean z-score":0.01,"z-score, replicate A":-0.02,"z-score, replicate B":-0.2,"z-score, replicate C":0.24}
